Pooled drug test results. Numbers come from NIAID ChemDB, via PubChem.

Shared fields: enzyme or target tests; protein: CCR5; measure: IC50

Lines come from different laboratories, so protocols vary. An empty or dashed field is not shown. ICn: concentration for n% inhibition.

SMILES | read by | changes | value
O=C(c1ccccc1Cl)N1C[C@H](CN2CCC(O)(CCCc3ccc(-c4nn[nH]n4)cc3)CC2)[C@@H](c2ccccc2)C1 | radiometric | CCR5-Y251A | 0.055 µM
COc1cccc(C(CCN2CCC(c3ccccc3)CC2)CN(C)S(=O)(=O)c2ccccc2)c1 | radioligand binding / binding | - | <10 µM
CN(CC(c1ccccc1)N1CCC2(CC1)CS(=O)c1ccccc12)S(=O)(=O)c1ccccc1 | radioligand binding / binding | - | >10 µM
CN(CC(CCN1CCC(NC(=O)NCc2ccccc2)CC1)c1ccccc1)S(=O)(=O)c1ccccc1 | radioligand binding / binding | - | 0.075 µM
CCN(C(=O)OCc1ccccc1)C1CCN(CCC(CC)(CN(C)S(=O)(=O)c2ccccc2)c2ccccc2)CC1 | radioligand binding / binding | - | 0.0097 µM
CN(C[C@@H](CCN1CCC2(CC1)CN(S(C)(=O)=O)c1ccccc12)c1ccc(Cl)c(Cl)c1)S(=O)(=O)c1ccccc1 | radioligand binding / binding | - | 0.5 µM
Cc1cccc(C(CCN2CCC(c3ccccc3)CC2)CN(C)S(=O)(=O)c2ccccc2)c1 | radioligand binding / binding | - | 0.68 µM
CC(CN1CCC(c2ccccc2)CC1)C(CN(C)S(=O)(=O)c1ccccc1)c1ccccc1 | radioligand binding / binding | - | >10 µM
CN(CC(CCN1CCC2(CC1)CSc1ccccc12)c1ccccc1Cl)S(=O)(=O)c1ccccc1 | radioligand binding / binding | - | >10 µM
CCN(C(=O)OCc1ccccc1)C1CCN(CC[C@](C)(CN(C)S(=O)(=O)c2ccccc2)c2ccccc2)CC1 | radioligand binding / binding | - | 0.00055 µM
CC(C)C(=O)N1C[C@H](CN2CCC(c3ccccc3)CC2)[C@@H](c2ccccc2)C1 | radiometric | CCR5-Y108A | 3.2 µM
CN(CC(C)(CCN1CCC2(CC1)CS(=O)(=O)c1ccccc12)c1ccccc1)S(=O)(=O)c1ccccc1 | radioligand binding / binding | - | 0.044 µM
CN(C[C@@H](CCN1CCC(c2ccccc2)CC1)c1ccc(F)cc1)S(=O)(=O)c1ccccc1 | radioligand binding / binding | - | <10 µM
CN(C[C@@H](CCN1CCCCC1)c1cccc(Cl)c1)S(=O)(=O)c1ccccc1 | radioligand binding / binding | - | >10 µM
COc1ccc(C(CCN2CCC(c3ccccc3)CC2)CN(C)S(=O)(=O)c2ccccc2)cc1 | radioligand binding / binding | - | <10 µM
CN(C[C@@H](CCNCCCCc1ccccc1)c1cccc(Cl)c1)S(=O)(=O)c1ccccc1 | radioligand binding / binding | - | >10 µM
CN(CC(C)(CCN1CCC2(CC1)CS(=O)c1ccccc12)c1ccccc1)S(=O)(=O)c1ccccc1 | radioligand binding / binding | - | 0.022 µM
CN(CC(CCN1CCC(c2ccccc2)CC1)c1ccccn1)S(=O)(=O)c1ccccc1 | radioligand binding / binding | - | <10 µM